The target of one experiment is IMPα/β1:C (Mus musculus, UniProt P52293). The experiment in a line: AlphaScreen IMPα/β1:C binding assay. The conditions noted are these: read-out: IC50 ± SD, 15 nM IMPα/β1, 30 nM capsid. In general terms: Alpha assays give light when donor and acceptor beads are brought close together.
For another experiment, the system named is VEEV-TC83luc. The experiment in a line: VEEV TC-83 luciferase reporter virus replication assay (BrightGlo). The class given is cell-based, Venezuelan equine encephalitis virus. The conditions noted are these: read-out: EC50 ± SD; Vero cells, 2 h pretreatment, 16 h post-infection. Background: In a reporter assay the amount or activity of a reporter protein is the signal.

Each structure is given as a SMILES string.

The values that follow come from article PMC5735092 (Scientific Reports, 2017).

Regarding `COc1ccc(N2CCN(C(=O)c3cc(-c4cccnc4)nc4ccccc34)CC2)cc1`, the IC50 on IMPα/β1:C is 36.2 µM.
Consider `CC(OC(C)(C)C)C(NC(=O)C(CSC(C)(C)C)NC(=O)C(CCC(=O)OC(C)(C)C)NC(=O)OCC1c2ccccc2-c2ccccc21)C(=O)O` (stereo not shown), for which the IC50 at IMPα/β1:C came to 21.9 µM. In the experiment on VEEV-TC83luc, the EC50 (in general, the concentration at which the effect is half-maximal) was more than 50 µM.
With `CCOc1ccc(C(=O)C2=C(O)C(=O)N(Cc3cccnc3)C2c2cccc(Oc3ccccc3)c2)cc1C` (stereo not shown), the IC50 at IMPα/β1:C was determined as 22.1 µM.
